Measurements from article PMC5826968.

System: GmrA (Z0639)
Experiment: EMSA with competition
Details: 1 nM DNA, 0-120 nM GmrA, unlabeled competitor 10-150 nM; 20 mM Tris-HCl pH 7.5, 80 mM NaCl, 0.1 mM EDTA, 1 mM DTT, 37 C, 20 min, 20 uL; 10% native PAGE; recombinant protein; residues 1-338; protein details: N-terminal 6xHis (pET28a); label: DIG (terminal transferase); probe letters rebuilt from the primers and the genome

**Q.** Does “CTGCCACAGCGAGTGTTTATCCATTACACCTTCAGCGGTATAGAGTGAATTCACGATAAACAGCCCTGCGTTATATGAGTTATCGGCATGATTATCCGTTTCTGCAGGGTTTTTAATCGGACGATTAGTGGGTGAAATGAGGGGTTATTTGGGGGTTACAGGTAAATTCCAGGCAGAAAAAACCCCGCCGGTGGCGGGGAAGCACGTTGCTAACAAATTGCGCTTTATGTTGCCGGATGCGGCGTAAACGCCTTATCCGGCCTACAAGAATGTGCAAATTCAATAAATTGCAATTCAACTTGTAGGCCTGATAAGCGCAGCGCATCAGGCAATTTGGCGTTGCCGTCAGTCTCAGTTAATCAGGTTACAACGATTAACCCTGCAGCAGAGACAGAACCTGCTGCGGTACCTGGTTAGCTTTTGCCAGCACGGAGTTACCGGCCTGCTGAATGATCTGCGCTTTCGACATGTTGGACACTTCGGTCGCATAGTCGG (double strand) [fliA promoter (PfliA)]” bind?
**A.** Result: binds
